A mixed list of measured activities; the numbers were collected in NIAID ChemDB.

Shared fields: target-level tests; species: HIV-1; target: Protease; read by: fluorescence; measure: inhibition

Inhibition is in % at the dose shown (toxicity tests: loss of growth or viability). An empty or dashed field is not shown. Rows are shuffled and stem from different studies.

smiles	tested at	strain or isolate	value
OC(CCc1cccc(F)c1)c1cnc2sc3c(n12)CCCCC3	10 µM		75%
CCCC1(CCC)OC(=O)C(C(c2cccc(N)c2)C2CC2)=C1O	3.3 µM		100%
CC(C)CC(=O)N[C@H](C(=O)N[C@H](C(=O)N[C@H]([C@@H](O)CC(=O)N[C@@H](C)C(=O)N[C@H]([C@@H](O)CC(=O)O)C(F)(F)F)C(F)(F)F)C(C)C)C(C)C	150 µM		0%
Cn1ccc2c(C(=O)N[C@@H](CSc3ccc4ccccc4c3)[C@H](O)Cc3ccccc3C(=O)NC(C)(C)C)cccc21	15 µg/mL		35%
OC(CCc1ccccc1)c1cnc2sc3c(n12)CCCC3	3.3 µM		100%
CC(C)(C)NC(=O)c1ccccc1C[C@@H](O)[C@H](Cc1ccccc1)NC(=O)[C@H](CC(=O)OCc1ccccc1)NC(=O)C(F)(F)F	0.02 µg/mL		52%
CCCC1(Cc2ccccc2)OC(=O)C(C(c2cccc(NS(=O)(=O)c3cccc4cccnc34)c2)C(C)C)=C1O	3.3 µM		100%
Cc1sc2ncc(C(O)CCc3ccccc3)n2c1C	10 µM		100%
O=C1OC(C(CCO)CCc2ccccc2)C(O)=C1C(c1ccccc1)C1CC1	0.3 µM		13%
CCCC(CCC)C(=O)N1C[C@@H](O)[C@@H](Cc2ccccc2)N(Cc2ccc(O)cc2)C(=O)N1Cc1ccc(O)cc1	0.0005 µM		43%
CCC1(Cc2ccccc2)OC(=O)C(C(c2ccccc2)C(C)C)=C1O	3.3 µM		100%
CC(C)(C)NC(=O)[C@@H]1CN(Cc2cncs2)CCN1C[C@@H](O)C[C@@H](Cc1ccccc1)C(=O)N[C@H]1c2ccccc2C[C@H]1O	0.0005 µM	IIIB	61%
CSCC[C@H](NC(C)=O)C(=O)N[C@@H](Cc1ccccc1)[C@H](O)Cc1ccccc1C(=O)NC(C)(C)C	1 µg/mL		45%
CCCC1(CCC)OC(=O)C(C(c2cccc(N)c2)C2CC2)=C1O.Cl	3.3 µM		100%
COc1ccc(/C=C/C(=O)C2=C(O)/C(=C/c3ccc(OC)c(OC)c3)CCC2)cc1OC	10 µM		61.6%
Cc1ccccc1CNC(=O)[C@H]1N(C(=O)[C@@H](O)[C@H](Cc2ccccc2)NS(=O)(=O)c2ccc(Br)s2)CSC1(C)C	0.064 µM	NL4-3	16%
C=CCC1(CCCc2ccccc2)OC(=O)C(C(c2ccccc2)C2CC2)=C1O	3.3 µM		100%
OC(CCc1ccc(F)cc1)c1cnc2sc3c(n12)CCCCC3	10 µM		84%
CC[C@H](NC(=O)[C@@H](NC(=O)[C@H](Cc1c[nH]c2ccccc12)NC(=O)OCc1ccccc1)C(C)C)[C@@H](O)CC(=O)N[C@@H](C)C(=O)NC(CC(C)C)[C@@H](O)CC(=O)OC	1 µM		0%
CCCC1(CCC)OC(=O)C(C(c2cccc(NS(=O)(=O)c3ccc(C#N)cc3)c2)C2CC2)=C1O	3.3 µM		100%
CC(=O)N[C@H](Cc1ccccc1)C(=O)N[C@@H](Cc1ccccc1)[C@H](O)Cc1ccccc1C(=O)NC(C)(C)C	1 µg/mL		45%
OC(CCc1ccccc1)c1cnc2sc3c(n12)CCC3	3.3 µM		85%

A second listing of 2 rows from above:

smiles | tested at | strain or isolate | value
C=CCC1(CCCc2ccccc2)OC(=O)C(C(c2ccccc2)C2CC2)=C1O | 3.3 µM |  | 100%
CC(C)(C)NC(=O)[C@@H]1CN(Cc2cncs2)CCN1C[C@@H](O)C[C@@H](Cc1ccccc1)C(=O)N[C@H]1c2ccccc2C[C@H]1O | 0.0005 µM | IIIB | 61%